“And” between values parts separate entries of the source, which are not always exact repeats. Equal entries are not always repeated.

In this test the target is SECRET domain (smallpox virus-encoded chemokine receptor domain) of the vTNFR CrmD encoded by ectrom (ectromelia virus). As to the kind of experiment: SPR. (Surface plasmon resonance follows binding to a sensor surface in real time, without labels.)

For orientation: Kd means a measure of binding affinity in units of concentration. Regarding “chemokine domain of human CX3CL1 (residues 1-76) (from UniProt P78423 25-100) (domain or fragment)”, the dissociation constant (Kd) was 421 nM and 937 nM and 680 nM.

For the origin of these results see PMC3145792, “Structural Basis of Chemokine Sequestration by CrmD, a Poxvirus-Encoded Tumor Necrosis Factor Receptor” (2011).
